For part of its entries the source gives two or more results. The other results are left out here. The source may hold further records. Values that stand side by side do not match, cause unknown; some may be repeats, others may stem from another dose, organism or construct than stated.
What was measured:
Format in all cases: cell-based
Details in all cases: BLI fixed 4 ug/ml; incubation 19 h
[1] = test system: K. pneumoniae 5971(KOX); experiment: BLI potentiation MIC, K. pneumoniae 5971(KOX)
[2] = test system: K. pneumoniae 89; experiment: BLI potentiation MIC, K. pneumoniae 89
[3] = test system: K. pneumoniae 6839; experiment: BLI potentiation MIC, K. pneumoniae 6839 (SHV-11, SHV-12, DHA-1)
[4] = test system: K. pneumoniae 100; experiment: BLI potentiation MIC, K. pneumoniae 100
[5] = test system: K. pneumoniae 23; experiment: BLI potentiation MIC, K. pneumoniae 23
[6] = test system: K. pneumoniae 7586; experiment: BLI potentiation MIC, K. pneumoniae 7586
[7] = test system: K. pneumoniae KU2; experiment: BLI potentiation MIC, K. pneumoniae KU2

NCCONC(=O)[C@@H]1CC[C@@H]2CN1C(=O)N2OS(=O)(=O)O [OP-595]
MIC of Meropenem with BLI [1]: 16 μg/mL, 4 μg/mL, 2 μg/mL | MIC of Meropenem with BLI [2]: 4 μg/mL, 2 μg/mL, 1 μg/mL | MIC of Meropenem with BLI [3]: 0.25 μg/mL, 0.0625 μg/mL, 0.125 μg/mL | MIC of Meropenem with BLI [4]: 4 μg/mL, 2 μg/mL, 1 μg/mL | MIC of Meropenem with BLI [5]: 16 μg/mL and 2 μg/mL | MIC of Meropenem with BLI [6]: 8 μg/mL, 2 μg/mL, 1 μg/mL | MIC of LCB10-0200 with BLI [7]: 8 μg/mL and 2 μg/mL

From patent US10273235B2, “Compositions and methods for inhibiting β-lactamase” (LegoChem Biosciences, Inc., priority 2015, dated 2019)
